Measured values from several laboratories, pooled; numbers as filed in NIAID ChemDB.

All rows: target-level tests

ICn is the concentration giving n% inhibition. Two numbers with a dash give a range or band. Blank or dashed fields: not listed here. Conditions beyond the fields shown may differ between rows. Inhibition is in % at the dose shown (toxicity tests: loss of growth or viability).

SMILES	dose	read-out	target	agent	value
CC[C@@H](C=O)NC(=O)[C@@H]1C[C@@H](OCc2ccccc2)CN1C(=O)[C@@H](NC(=O)CCc1ccccc1)C(C)C		Ki	NS3 protease	Hepatitis C virus	>100 µM
COc1nc(Nc2ccc3cn[nH]c3c2)nc(N2CCCC2)n1	10 µg/mL	inhibition	Nonstructural protein 5B	Hepatitis C virus	65%
O=C(NCc1ccccc1F)Nc1cscc1-c1nc(C(=O)O)c(O)c(=O)[nH]1		IC50	HCV polymerase	Hepatitis C virus	<25 µM
O=C(O)c1ccc2c(c1)nc(-c1ccc3nc(-c4cc5ccccc5o4)ccc3c1)n2C1CCCCC1	33 µM	inhibition	NS5B polymerase	Hepatitis C virus	95.5%
COc1nc(Nc2ccc3cn[nH]c3c2)nc(NN2CCOCC2)n1		IC50	DNA polymerase	Hepatitis B virus	0.1–1 µg/mL
O=C(Cc1cccc2ccccc12)Nc1cscc1-c1nc(C(=O)O)c(O)c(=O)[nH]1		IC50	HCV polymerase	Hepatitis C virus	<25 µM
C[C@H](NC(=O)c1ccc2cc(-c3nc4cc(C(=O)O)ccc4n3C3CCCCC3)ccc2n1)C(N)=O	100 µM	inhibition	NS5B polymerase	Hepatitis C virus	88.47%
CNC(=O)c1c(-c2ccc(F)cc2)oc2cc(C#N)c(OC)cc12		IC50	Nonstructural protein 5B	Hepatitis C virus	≤0.5 µM
Cc1cc(-c2nc3cc(C(=O)O)ccc3n2C2CCCCC2)cc2ccc(-c3ccccc3)nc12	100 µM	inhibition	NS5B polymerase	Hepatitis C virus	99.28%
CC(C)N(C(=O)c1ccc(Cl)cc1Cl)c1cc(-c2cccc(Cl)c2)sc1C(=O)O		IC50	NS3 ATPase	Hepatitis C virus	<5 µM
O=C(Nc1cscc1-c1nc(C(=O)O)c(O)c(=O)[nH]1)OCc1ccccc1Cl		IC50	HCV polymerase	Hepatitis C virus	<25 µM
CC[C@H](NC(=O)[C@H](CC(C)C)NC(=O)[C@@H](NC(=O)[C@@H](NC(=O)c1cnccn1)C(C)C)C(C)C)C(=O)C(=O)N[C@H](C)c1ccccc1		Ki	NS3 protease	Hepatitis C virus	1–100 µM
Clc1ccc(COc2cccc(-c3cnc4c(-c5nn[nH]n5)cnn4c3C3CCCCC3)c2)cc1Cl		IC50	RNA-dependent RNA polymerase	Hepatitis C virus	1–10 µM
COc1nc(NCCc2ccccn2)nc(Nc2ccc3[nH]ncc3c2)n1	0.1 µg/mL	inhibition	DNA polymerase	Hepatitis B virus	39%
O=C(O)c1ccc2nc(-c3ccc4nc(-c5ccccc5-c5ccc(Cl)cc5)ccc4c3)[nH]c2c1	100 µM	inhibition	NS5B polymerase	Hepatitis C virus	67.52%
CC[C@@H](C=O)NC(=O)[C@@H]1C[C@@H](OCc2ccccc2)CN1C(=O)[C@@H](NC(=O)c1cc(C)oc1C)C(C)C		Ki	NS3 protease	Hepatitis C virus	>100 µM
c1ccc(COc2ccc(-c3cnc4c(-c5nn[nH]n5)cnn4c3C3CCCCC3)cc2)nc1		IC50	RNA-dependent RNA polymerase	Hepatitis C virus	1–10 µM
O=C(Cc1cccnc1)Nc1ccsc1-c1nc(C(=O)O)c(O)c(=O)[nH]1		IC50	HCV polymerase	Hepatitis C virus	<25 µM
CN(C(=O)c1ccc2cc(-c3nc4cc(C(=O)O)ccc4n3C3CCCCC3)ccc2n1)c1ccc(Cl)cc1	33 µM	inhibition	NS5B polymerase	Hepatitis C virus	95.35%
COc1nc(NCCN(C)C)nc(Nc2ccc3[nH]ncc3c2)n1	0.1 µg/mL	inhibition	Nonstructural protein 5B	Hepatitis C virus	5%
O=C(Nc1ccccc1F)Nc1cscc1-c1nc(C(=O)O)c(O)c(=O)[nH]1		IC50	HCV polymerase	Hepatitis C virus	<25 µM
Cc1cccc(CN(C(=O)CC2CCCC2)c2cc(-c3ccccc3)sc2C(=O)O)c1		IC50	NS3 ATPase	Hepatitis C virus	<5 µM
COc1ccc(-c2cc(-c3ccc(Oc4ccccc4)cc3)nc3cc(C(=O)O)nn23)cc1		IC50	RNA-dependent RNA polymerase	Hepatitis C virus	1–10 µM
CNC(=O)C1CCN(c2nc(Nc3ccc4[nH]ncc4c3)nc(OC)n2)CC1	10 µg/mL	inhibition	Nonstructural protein 5B	Hepatitis C virus	45%
O=C(O)c1nc(-c2ccccc2NS(=O)(=O)c2ccc(-c3ccccc3)cc2)[nH]c(=O)c1O		IC50	HCV polymerase	Hepatitis C virus	<100 µM
O=C(O)c1cc2nc(-c3ccoc3)c(CCC3CCCCC3)c(=O)n2[nH]1		IC50	RNA-dependent RNA polymerase	Hepatitis C virus	<1 µM
O=C(O)c1nc(-c2ccccc2COc2ccccc2)[nH]c(=O)c1O		IC50	HCV polymerase	Hepatitis C virus	<100 µM
O=C(O)c1ccc2c(c1)nc(-c1ccc3nc(-c4ccc(-c5ccccc5)cc4)ccc3c1)n2C1CCCCC1	33 µM	inhibition	NS5B polymerase	Hepatitis C virus	79.87%
c1ccc(COc2ccc(-c3cnc4c(-c5nn[nH]n5)cnn4c3N3CCNCC3)cc2)cc1		IC50	RNA-dependent RNA polymerase	Hepatitis C virus	>10 µM
CN(C)c1cc(-c2ccccc2)nc2ccc(-c3nc4cc(C(=O)O)ccc4n3C3CCCCC3)cc12	33 µM	inhibition	NS5B polymerase	Hepatitis C virus	76.46%
COc1nc(Nc2ccc3cn[nH]c3c2)nc(NN2CCN(C)CC2)n1	1 µg/mL	inhibition	Nonstructural protein 5B	Hepatitis C virus	43%
COc1ccc(-c2cnc3cc(C(=O)O)nn3c2C2CCCCC2)cc1		IC50	RNA-dependent RNA polymerase	Hepatitis C virus	>10 µM
Cc1ccc(C(=O)N(CCO)c2cc(-c3ccccc3)sc2C(=O)O)cc1		IC50	NS3 ATPase	Hepatitis C virus	<5 µM
COc1nc(Nc2ccc3[nH]ncc3c2)nc(N2CCN(C(=O)c3cccnc3)CC2)n1	0.1 µg/mL	inhibition	DNA polymerase	Hepatitis B virus	35%
CNC(=O)c1c(-c2ccc(F)cc2)oc2cc(C(C)N(C)S(C)(=O)=O)c(OC)cc12		IC50	Nonstructural protein 5B	Hepatitis C virus	≤0.5 µM
CC[C@@H](C=O)NC(=O)[C@@H]1C[C@@H](OCc2ccccc2)CN1C(=O)[C@@H](NC(=O)CCC(=O)c1ccccc1)C(C)C		Ki	NS3 protease	Hepatitis C virus	>100 µM
CNC(=O)c1c(-c2ccc(F)cc2)oc2cc(N(C)S(C)(=O)=O)c(OCC(=O)Nc3nccs3)cc12		IC50	Nonstructural protein 5B	Hepatitis C virus	≤0.5 µM
O=C(Nc1nn[nH]n1)c1cc2nc(-c3ccc(OCc4ccccc4)cc3)c(C3CCCCC3)c(=O)n2[nH]1		IC50	RNA-dependent RNA polymerase	Hepatitis C virus	<1 µM
Cc1ccc(S(=O)(=O)Nc2cc(-c3ccc(C(N)=O)cc3)sc2C(=O)O)c(C)c1		IC50	NS3 ATPase	Hepatitis C virus	<5 µM
CNC(=O)c1c(-c2ccc(F)cc2)oc2cc(N(C)S(C)(=O)=O)c(OCc3nccs3)cc12		IC50	Nonstructural protein 5B	Hepatitis C virus	≤0.5 µM
CC(=O)c1ccc(-c2cc(NS(=O)(=O)c3ccc(C)cc3C)c(C(=O)O)s2)cc1		IC50	NS3 ATPase	Hepatitis C virus	<5 µM
O=C(O)c1cnc2c(c1)nc(-c1ccc3nc(-c4ccccc4-c4ccc(Cl)cc4)ccc3c1)n2C1CCCCC1	100 µM	inhibition	NS5B polymerase	Hepatitis C virus	94.33%